Assay results as given in patent US10806794B2, “Protease inhibitors having enhanced features” (priority 2008, dated 2020).
pEC50: −log10 of the molar value.

How the values were obtained:
[1] = system: Caco-2 cells
[2] = system: HIV-1 virions; experiment: Infectivity of HIV-1 virions from treated cells on naive CEM-SS cells; type: cell-based
[3] = system: HIV-1RF; experiment: p24 levels after single high MOI HIV-1RF infection of CEM-SS cells, time of addition
[4] = system: HIV-1RF; experiment: Post-exposure assay: compounds added after HIV-1 infection of CEM-SS cells, cell viability; type: cell-based
[5] = system: HIV-1RF; experiment: Pre-exposure assay: CEM-SS cells treated before HIV-1RF infection, cell viability; type: cell-based

Q: COCCOCCOCCOCCOCCNC(=O)C[C@H](NC(=O)c1ccc2ccccc2n1)C(=O)N[C@@H](Cc1ccccc1)[C@H](O)CN1C[C@H]2CCCC[C@H]2C[C@H]1C(=O)NC(C)(C)C was tested. Which Papp A→B [1] did it give?
A: 1.66 ×10⁻⁶ cm/s

Q: Which “Percent Infectivity of HIV-1 Virions in comparison to virus-alone control” value (“Percent Infectivity of HIV-1 Virions” for short) ([2]; 0.01 μM, added 8 h post-infection) does the source give for COCCOCCOCCOCCOCCOCCOCCNC(=O)C[C@H](NC(=O)c1ccc2ccccc2n1)C(=O)N[C@@H](Cc1ccccc1)[C@H](O)CN1C[C@H]2CCCC[C@H]2C[C@H]1C(=O)NC(C)(C)C here?
A: 117.0%

Q: What about the “Percent Infectivity of HIV-1 Virions” value ([2]; 0.01 μM, added 16 h post-infection) of the same compound?
A: 177.8%

Q: What about the “Percent Infectivity of HIV-1 Virions” value ([2]; 0.01 μM, added 24 h post-infection) of the same compound?
A: 100.0%

Q: What about the “virus infectivity reduced to % of virus-alone controls” value ([2]; 0.1 μM at 8 hours post-infection) of the same compound?
A: 63%

Q: What about the “virus infectivity reduced to % of virus-alone controls” value ([2]; 0.1 μM at 16 hours post-infection) of the same compound?
A: 99.9%

Q: And the “Percent Infectivity of HIV-1 Virions” value ([2]; 0.1 μM, added 8 h post-infection)?
A: 0.1%

Q: And the “Percent Infectivity of HIV-1 Virions” value ([2]; 0.1 μM, added 16 h post-infection)?
A: 37.0%

Q: What about the “reduction of virion infectivity” value ([2]; 1 μM added up to 24 hours post-infection) of the same compound?
A: at least 90%

Q: What about the “Percent Infectivity of HIV-1 Virions” value ([2]; 1 μM, added 8 h post-infection) of the same compound?
A: 0.1%

Q: And the “Percent Infectivity of HIV-1 Virions” value ([2]; 1 μM, added 16 h post-infection)?
A: 1.4%

Q: And the “Percent Infectivity of HIV-1 Virions” value ([2]; 1 μM, added 24 h post-infection)?
A: 10.0%

Q: What about the “time of addition up to which antiviral activity (reduced p24) was seen” value ([3]; 0.1 μM) of the same compound?
A: up to 16 hours post-infection

Q: What about the “time of addition up to which antiviral activity (reduced p24) was seen” value ([3]; 1 μM) of the same compound?
A: up to 24 hours post-infection

Q: What about the pEC50 ([4]; drug addition 0 h post-infection) of the same compound?
A: 7.30

Q: What about the pEC50 ([4]; drug addition 24 h post-infection) of the same compound?
A: 7.30

Q: What about the pEC50 ([4]; drug addition 48 h post-infection) of the same compound?
A: 7.30

Q: And the pEC50 ([4]; drug addition 72 h post-infection)?
A: 7.05

Q: What about the pEC50 ([5]; exposure 2 h pre-infection) of the same compound?
A: 6.30

Q: And the pEC50 ([5]; exposure 8 h pre-infection)?
A: 6.27

Q: What about the pEC50 ([5]; exposure 24 h pre-infection) of the same compound?
A: 6.13

Q: What about the Papp A→B [1] of the same compound?
A: 0.255 ×10⁻⁶ cm/s

Q: How did the Papp A→B [1] turn out when COCCOCCOCCNC(=O)C[C@H](NC(=O)c1ccc2ccccc2n1)C(=O)N[C@@H](Cc1ccccc1)[C@H](O)CN1C[C@H]2CCCC[C@H]2C[C@H]1C(=O)NC(C)(C)C was run?
A: 4.21 ×10⁻⁶ cm/s
